Patent US20230181700A1 (GLIKNIK, published 2023)

Molecular target: SARS-CoV-2 S1 spike protein (Acrobiosystem, Cat No: SPN-CH52H8) (SARS-CoV-2)

B1: GL-ACE2-IgG1, the reference (parental) ACE2-IgG1 fusion protein (Fc fusion)
chain: not shown
  EC50: 0.216 µg/mL
